# Experimental data from publication PMC10764958, “TRIM28-mediated nucleocapsid protein SUMOylation enhances SARS-CoV-2 virulence” (2024).
# Target: non-SUMOylated SARS2-NP K65R, purified from HEK293F cells, SARS-CoV-2, P0DTC9 1-419
substance,measurement,value
AF488-labeled SARS2-NP (ligand of the MST of Fig. 2g) K65R; Alexa Fluor 488 maleimide on a C-terminal cysteine,result,binds
